US20060223055A1 (published 2006)

How the values were obtained:
Experiment in all cases: restatement of the GST pull-down and co-immunoprecipitation results
[1] = target: HPV16 E2 Y138A (pCMV4-16E2 mutant, expressed in C33A cells) (human papillomavirus 16 (HPV16))
[2] = target: HPV16 E2 Y178A (pCMV4-16E2 mutant, expressed in C33A cells) (human papillomavirus 16 (HPV16))
[3] = target: HPV16 E2 E39A (pCMV4-16E2 mutant, expressed in C33A cells) (human papillomavirus 16 (HPV16))
[4] = target: HPV16 E2 F121A (pCMV4-16E2 mutant, expressed in C33A cells) (human papillomavirus 16 (HPV16))

Measured: binding result

B1: His-Xpress-SV40NLS-HBrd41047-1362 (other)
chain: RHHKSDPYSTGHLREAPSPLMIHSPQMSQFQSLTHQSPPQQNVQPKKQELRAASVVQPQPLVVVKEEKIHSPIIRSEPFSPSLRPEPPKHPESIKAPVHLPQRPEMKPVDVGRPVIRPPEQNAPPPGAPDKDKQKQEPKTPVAPKKDLKIKNMGSWASLVQKHPTTPSSTAKSSSDSFEQFRRAAREKEEREKALKAQAEHAEKEKERLRQERMRSREDEDALEQARRAHEEARRRQEQQQQQRQEQQQQQQQQAAAVAAAATPQAQSSQPQSMLDQQRELARKREQERRRREAMAATIDMNFQSDLLSIFEENLF
notes: also called His-Xpress-SV40NLS-hBrd4-CTD; Xpress-tagged Brd4-CTD
binds: all assays above
